Results of unrelated studies side by side (data: NIAID ChemDB).

All rows: whole-cell or culture tests

ECn is the concentration giving n% inhibition of infection, replication or growth. An empty or dashed field is not shown. Lines come from different laboratories, so protocols vary. Inhibition is in % at the dose shown (toxicity tests: loss of growth or viability).

compound	agent	strain or isolate	read by	cells	endpoint	tested at	result
CCOC(=O)C1=CN(COCCOC(C)=O)S(=O)(=O)N=C1N	Herpes simplex virus 1	McIntyre	-	E6SM	EC50	-	>400 µg/mL
CCN(CC)CC(=O)Nc1ccc(-c2nc3ccc(C(F)(F)F)cc3[nH]2)cc1	Herpes simplex virus	1	plaque count	-	EC50	-	>24 µM
CC(=O)OCCOCN1C=C(C#N)C(N)=NS1(=O)=O	Herpes simplex virus 1	B206 (TK-)	-	E6SM	EC50	-	>400 µg/mL
Cc1ccc(Cn2cnc(=N)c3[nH]cnc32)cc1	Herpes simplex virus 1	-	plaque count	BSC-1	inhibition	6 µg/mL	0%
Nc1ncnc2c1ncn2[C@@H]1O[C@H](CO)[C@@H](O)[C@@H]1O	Herpes simplex virus 1	F	virus yield	HL	inhibition	5 µg/mL	96%
CC(C)=CCC[C@@H](COS(=O)(=O)O)C1CCC2C3CC[C@H]4C[C@H](OS(=O)(=O)O)[C@@H](O)CC4(C)C3CCC21C	Herpes simplex virus 2	G	plaque count	VERO	inhibition	80 µg/mL	100%
Cc1cn([C@@H]2O[C@H](CO)[C@@H](O)[C@@H]2F)c(=O)[nH]c1=O	Herpes simplex virus 2	G	cytopathic effect	PRK	inhibition	0.02 µg/mL	≥25%
Nc1ccn([C@H]2O[C@@H](CO)[C@H](O)[C@H]2F)c(=O)n1	Herpes simplex virus 2	G	virus yield	VERO	inhibition	1 µM	58%
O=S(=O)(O)c1ccc2cc(O)c(S(=O)(=O)O)cc2c1	Herpes simplex virus	-	cytopathic effect	Human conjunctiva cells	inhibition	50 µg/mL	0%
COc1cc(O)c(Cl)cc1NC(=S)Nc1ccc(NC(=O)c2csnn2)cc1	Herpes simplex virus	-	-	-	EC50	-	>23 µM
Cc1cc(-c2ccc(N=Nc3ccc4c(S(=O)(=O)O)cc(S(=O)(=O)O)c(N)c4c3O)c(C)c2)ccc1N=Nc1ccc2c(S(=O)(=O)O)cc(S(=O)(=O)O)c(N)c2c1O	Herpes simplex virus	-	cytopathic effect	Human amnion AV3 cells	inhibition	50 µg/mL	90%
C/C=C/c1cn([C@@H]2O[C@H](CO)[C@@H](O)[C@@H]2O)c(=O)[nH]c1=O	Herpes simplex virus 1	C42	plaque count	VERO	inhibition	250 µM	12%
O=C(Nc1ccc2cc(S(=O)(=O)[O-])cc(S(=O)(=O)[O-])c2c1)c1ccccc1	Herpes simplex virus	-	cytopathic effect	Human conjunctiva cells	inhibition	5 µg/mL	0%
Cc1cn([C@@H]2O[C@H](CO)[C@@H](O)[C@@H]2F)c(=O)[nH]c1=O	Herpes simplex virus 2	G	virus yield	VERO	inhibition	5 µM	98%
CCCn1cnc(=N)c2[nH]cnc21	Herpes simplex virus 1	-	plaque count	BSC-1	inhibition	25 µg/mL	0%
Nc1nc(=S)c2[nH]c(-c3cscn3)nc2[nH]1	Herpes simplex virus 1	-	plaque count	VERO	inhibition	100 µg/mL	32%
COc1cc(OC)c(NC(=S)Nc2ccc(NC(=O)c3csnn3)cc2)cc1Cl	Herpes simplex virus	-	-	-	EC50	-	>22 µM
O=S(=O)([O-])c1ccc2c(NS(=O)(=O)c3ccccc3)cc(S(=O)(=O)[O-])cc2c1	Herpes simplex virus	-	cytopathic effect	Human amnion AV3 cells	inhibition	10 µg/mL	0%
CC(C)=CCCC(CO)C1CCC2C3CC=C4C[C@H](O)[C@@H](O)CC4(C)C3CCC12C	Herpes simplex virus 2	G	plaque count	VERO	inhibition	20 µg/mL	51.5%
Cc1cc(-c2ccc(N=Nc3c(N)c(S(=O)(=O)O)cc4cc(S(=O)(=O)O)ccc34)c(C)c2)ccc1N=Nc1c(N)ccc2cc(S(=O)(=O)O)ccc12	Herpes simplex virus	-	cytopathic effect	Human amnion AV3 cells	inhibition	50 µg/mL	100%
Nc1nc2c(ncn2COCCO)c(=O)[nH]1	Herpes simplex virus 2	Heeter	plaque count	HFF	EC50	-	0.9 µg/mL
O=S(=O)([O-])c1cc(O)c2ccccc2c1	Herpes simplex virus	-	cytopathic effect	Human conjunctiva cells	inhibition	50 µg/mL	0%
CC(=O)OCCOCN1C(C)=CC(N)=[N+](c2ccccc2)S1(=O)=O	Herpes simplex virus 1	VMW1837 (TK-)	-	E6SM	EC50	-	>400 µg/mL
O=c1[nH]c(=O)n([C@H]2C[C@H](O)[C@@H](CO)O2)cc1/C=C/Br	Herpes simplex virus 2	G	cytopathic effect	PRK	inhibition	2.3 µg/mL	≥25%
CCC(NC(=S)Nc1ccc(NC(=O)c2cscn2)cc1)c1cc(C(F)(F)F)cc(C(F)(F)F)c1	Herpes simplex virus	-	-	-	EC50	-	4.1 µM
Cc1cccc(Cn2cnc(=N)c3[nH]cnc32)c1	Herpes simplex virus 1	-	plaque count	BSC-1	inhibition	6 µg/mL	0%
Nc1nc2c(ncn2COC(CO)CO)c(=O)[nH]1	Herpes simplex virus 2	K979	cytopathic effect	HEP-2	inhibition	0.3 µg/mL	≥25%
O=c1[nH]c(=O)n([C@@H]2O[C@H](CO)[C@@H](O)[C@@H]2O)cc1/C=C/Cl	Herpes simplex virus	WT-34	-	-	MIC	-	0.1 µg/mL
CC12CCC3C(C[C@H](OS(=O)(=O)O)[C@H]4C[C@@H](OS(=O)(=O)O)CCC34C)C1CCC2C(=O)CO	Herpes simplex virus 2	G	plaque count	VERO	inhibition	80 µg/mL	6%
O=c1[nH]c(=O)n([C@H]2C[C@H](O)[C@@H](CO)O2)cc1I	Herpes simplex virus 2	G	cytopathic effect	PRK	inhibition	0.91 µg/mL	≥25%
C=Cc1cn([C@@H]2O[C@H](CO)[C@@H](O)[C@@H]2O)c(=O)[nH]c1=O	Herpes simplex virus	WT-34	-	-	MIC	-	0.32 µg/mL
OC[C@H]1O[C@H](Oc2ccc(Cl)cc2)C[C@@H](O)[C@@H]1O	Herpes simplex virus	-	plaque count	LLC-MK2	EC50	-	2000 µM
Cc1cn([C@@H]2O[C@H](CO)[C@@H](O)[C@@H]2O)c(=O)[nH]c1=O	Herpes simplex virus	WT-20	-	-	MIC	-	100 µg/mL
CC(C)CCCC(COS(=O)(=O)O)C1CCC2C3CC=C4C[C@H](O)[C@@H](OS(=O)(=O)O)CC4(C)C3CCC12C	Herpes simplex virus 2	G	plaque count	VERO	inhibition	40 µg/mL	54.5%
Nc1nc2c(ncn2COC(CO)CO)c(=O)[nH]1	Herpes simplex virus 1	SC16 (mutant S1)	plaque count	WI-38	inhibition	1 µM	90%
Nc1nc(=O)n([C@@H]2O[C@H](CO)[C@@H](O)[C@@H]2F)cc1I	Herpes simplex virus 2	G	virus yield	VERO	inhibition	0.01 µM	50%
Nc1ccn(C[C@@H](CO)OCP(=O)(O)O)c(=O)n1	Herpes simplex virus	Final clinical isolates	plaque count	MRC-5	EC50	-	8 µM
C/C=C/c1cn([C@H]2C[C@H](O)[C@@H](CO)O2)c(=O)[nH]c1=O	Herpes simplex virus 1	C42	plaque count	VERO	inhibition	1 µM	53%
OC[C@H]1O[C@H](Oc2ccccc2)C[C@@H](O)[C@@H]1O	Herpes simplex virus	-	plaque count	LLC-MK2	EC50	-	2000 µM
O=S(=O)(O)c1cccc2c(O)cccc12	Herpes simplex virus	-	cytopathic effect	Human amnion AV3 cells	inhibition	50 µg/mL	10%
O=c1ccn([C@@H]2O[C@H](CO)[C@@H](O)[C@@H]2F)c(=O)[nH]1	Herpes simplex virus 2	G	virus yield	VERO	inhibition	2.5 µM	97.9%

Repeating the first 6 entries:

compound | agent | strain or isolate | read by | cells | endpoint | tested at | result
CCOC(=O)C1=CN(COCCOC(C)=O)S(=O)(=O)N=C1N | Herpes simplex virus 1 | McIntyre | - | E6SM | EC50 | - | >400 µg/mL
CCN(CC)CC(=O)Nc1ccc(-c2nc3ccc(C(F)(F)F)cc3[nH]2)cc1 | Herpes simplex virus | 1 | plaque count | - | EC50 | - | >24 µM
CC(=O)OCCOCN1C=C(C#N)C(N)=NS1(=O)=O | Herpes simplex virus 1 | B206 (TK-) | - | E6SM | EC50 | - | >400 µg/mL
Cc1ccc(Cn2cnc(=N)c3[nH]cnc32)cc1 | Herpes simplex virus 1 | - | plaque count | BSC-1 | inhibition | 6 µg/mL | 0%
Nc1ncnc2c1ncn2[C@@H]1O[C@H](CO)[C@@H](O)[C@@H]1O | Herpes simplex virus 1 | F | virus yield | HL | inhibition | 5 µg/mL | 96%
CC(C)=CCC[C@@H](COS(=O)(=O)O)C1CCC2C3CC[C@H]4C[C@H](OS(=O)(=O)O)[C@@H](O)CC4(C)C3CCC21C | Herpes simplex virus 2 | G | plaque count | VERO | inhibition | 80 µg/mL | 100%